Source: publication PMC10573436, “Novel Antiviral Molecules against Ebola Virus Infection” (2023)

Biological target: partner chain of the complex shown

B1: unnamed (protein)
parent chain 1: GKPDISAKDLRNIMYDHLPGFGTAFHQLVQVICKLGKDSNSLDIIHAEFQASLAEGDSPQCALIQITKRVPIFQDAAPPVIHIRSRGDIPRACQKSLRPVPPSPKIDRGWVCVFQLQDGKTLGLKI
parent chain 2: MAGDLSAGFFMEELNTYRQKQGVVLKYQELPNSGPPHDRRFTFQVIIDGREFPEGEGRSKKEAKNAAAKLAVEILNKEKKAVSPLLLTTTNSSEGLSMGNYIGLINRIAQKKRLTVNYEQCASGVHGPEGFHYKCKMGQKEYSIGTGSTKQEAKQLAAKLAYLQILSEETSVKSDYLSSGSFATTCESQSNSLVTSTLASESSSEGDFSADTSEINSNSDSLNSSSLLMNGLRNNQRKAKRSLAPRFDLPDMKETKYTVDKRFGM
**Q.** B1 was tested. Which response did it give?
**A.** 5e+07 and 4.2e+07 and 4.7e+07

Values joined by “and” are separate entries in the source; they are usually repeats but may differ in a detail not shown here. Equal entries are not always repeated.
